Measured values from several laboratories, pooled; numbers as filed in NIAID ChemDB.

Common to all: whole-cell or culture tests

MIC50, MIC90 and the like: level of inhibition, or share of isolates inhibited. Zone: diameter of growth inhibition. a–b is a range or a potency band. An empty or dashed field is not shown. Lines come from different laboratories, so protocols vary.

Cc1ccc(-c2n[nH]c(COc3ncnc4ccccc34)n2)cc1 ; endpoint: MIC100 ; strain or isolate: MTCC 277 ; organism: Aspergillus flavus ; value: 25 µg/mL
CCC(C)CC(C)CCCCCCCCC(=O)N[C@H]1C[C@@H](O)[C@H](NCCN)NC(=O)[C@@H]2[C@@H](O)CCN2C(=O)[C@H]([C@H](O)CCN)NC(=O)[C@H]([C@H](O)[C@@H](O)c2ccc(O)cc2)NC(=O)[C@@H]2C[C@@H](O)CN2C(=O)[C@H]([C@@H](C)O)NC1=O ; endpoint: MIC ; read by: broth dilution ; strain or isolate: ND125 ; organism: Aspergillus terreus ; value: 0.06 µg/mL
O=C(/C=C/c1ccc(OCCOc2ccc(/C=C/C(=O)c3ccccc3)cc2)cc1)c1ccccc1 ; endpoint: MIC ; read by: broth dilution ; organism: Aspergillus janus ; value: 16 µg/mL
CCN=C1NN(C(=O)Cc2cc(=O)oc3cc(O)ccc23)C(c2cc3ccccc3oc2=O)=CS1 ; endpoint: MIC50 ; read by: broth dilution ; organism: Aspergillus ochraceus ; value: 0.1 µg/mL
FC(F)(F)c1nc(OCc2nc(-c3ccccc3)n[nH]2)c2ccccc2n1 ; endpoint: MIC100 ; strain or isolate: MTCC 277 ; organism: Aspergillus flavus ; value: 25 µg/mL
COC(=O)/C(C)=C1\C(=O)[C@H](O)[C@]2(C)C3=C1[C@]14OC(=O)C5=C1C[C@H]1[C@](O)(COC(=O)/C(C)=C/COC(=O)CCC(=O)OC5)[C@H]5C[C@H]5[C@]1(C)[C@@H]4C[C@]3(O)[C@H]1C[C@H]12 ; endpoint: MIC ; read by: broth dilution ; strain or isolate: ATCC 293 ; organism: Aspergillus spp. ; value: 64 µg/mL
Cc1ccc(S(=O)(=O)CNc2oc3[nH]c(=O)[nH]c(=O)c3c2-c2ccc(O)cc2)cc1 ; endpoint: zone ; read by: agar diffusion / agar ; dose: 100 µg/mL ; organism: Aspergillus oryzae ; value: 25 mm
CC(C)CC(O)C(=O)O ; endpoint: MFC100 ; read by: broth dilution / visual reading ; strain or isolate: MRCM 25730 ; organism: Aspergillus terreus ; value: 36000 µg/mL
c1ccc(C2=NN(c3ccccc3)C(c3ccc(OCCCCCCCCOc4ccc(C5CC(c6ccccc6)=NN5c5ccccc5)cc4)cc3)C2)cc1 ; endpoint: MIC ; read by: broth dilution ; organism: Aspergillus janus ; value: 8 µg/mL
O=[N+]([O-])c1ccc(NC(=S)N/N=C/c2c[nH]c3ccccc23)cc1 ; endpoint: MIC ; read by: broth dilution ; strain or isolate: CMT 0334 ; organism: Aspergillus parasiticus ; value: 500 µg/mL
O=C(/C=C/c1ccc(OCCCCCCCCCCCCOc2ccc(/C=C/C(=O)c3ccccc3)cc2)cc1)c1ccccc1 ; endpoint: MIC ; read by: broth dilution ; organism: Aspergillus janus ; value: 16 µg/mL
C[C@H]1[C@H](O)[C@@H](C)/C=C/C=C/C=C/C=C/C=C/C=C/C=C/[C@H](O[C@@H]2O[C@H](C)[C@@H](O)[C@H](N)[C@@H]2O)C[C@@H]2O[C@](O)(C[C@@H](O)C[C@@H](O)CC[C@H](O)[C@@H](O)C[C@@H](O)CC(=O)O[C@H]1C)C[C@H](O)[C@H]2C(=O)O ; endpoint: MIC ; read by: XTT ; strain or isolate: Clinical isolate ; organism: Aspergillus terreus ; value: 1–2 µg/mL
c1ccc(C2=NN(c3ccccc3)C(c3ccc(OCCCCCOc4ccc(C5CN(c6ccccc6)N=C5c5ccccc5)cc4)cc3)C2)cc1 ; endpoint: MIC ; read by: broth dilution ; organism: Aspergillus janus ; value: 8 µg/mL
CC1=C2C3=C4[C@](C)([C@@H]5C[C@@H]5[C@@]4(O)C[C@@H]4[C@]35OC(=O)C3=C5C[C@H]5[C@](O)(COC(=O)/C(C)=C/COC(=O)CCC(=O)OC3)[C@H]3C[C@H]3[C@]45C)[C@@H](O)[C@]2(O)OC1=O ; endpoint: MIC ; read by: broth dilution ; strain or isolate: ATCC 293 ; organism: Aspergillus spp. ; value: >256 µg/mL
CN=C1NN(C(=O)Cc2cc(=O)oc3cc(O)ccc23)C(c2c(O)c3ccccc3oc2=O)=CS1 ; endpoint: MIC50 ; read by: broth dilution ; organism: Aspergillus ochraceus ; value: 0.1 µg/mL
COc1ccc(NC(=S)N/N=C/c2c[nH]c3ccccc23)cc1 ; endpoint: MIC ; read by: broth dilution ; strain or isolate: CMT 0334 ; organism: Aspergillus parasiticus ; value: 500 µg/mL
C[C@H]1[C@H](O)[C@@H](C)/C=C/C=C/C=C/C=C/C=C/C=C/C=C/[C@H](O[C@@H]2O[C@H](C)[C@@H](O)[C@H](N)[C@@H]2O)C[C@@H]2O[C@](O)(C[C@@H](O)C[C@@H](O)CC[C@H](O)[C@@H](O)C[C@@H](O)CC(=O)O[C@H]1C)C[C@H](O)[C@H]2C(=O)O ; endpoint: MIC100 ; read by: broth dilution ; strain or isolate: ATCC 10690 ; conditions: 24 h ; organism: Aspergillus terreus ; value: 0.5 µg/mL
CCCCNC(=S)N/N=C/c1c[nH]c2ccccc12 ; endpoint: MIC ; read by: broth dilution ; strain or isolate: CMT 0334 ; organism: Aspergillus parasiticus ; value: 500 µg/mL
Cc1cc(O)c2c(c1)C(=O)c1cc(O)c(O)c(O)c1C2=O ; endpoint: MIC100 ; read by: visual reading ; mutations: cclA delta ; organism: Aspergillus nidulans ; value: 71–142 µM
COc1ccc(-c2n[nH]c(COc3ncnc4ccccc34)n2)cc1 ; endpoint: MIC100 ; strain or isolate: MTCC 277 ; organism: Aspergillus flavus ; value: 25 µg/mL
O=C(Cc1cc(=O)oc2cc(O)ccc12)N1NC(=Nc2ccccc2)SC=C1c1cc2ccccc2oc1=O ; endpoint: MIC50 ; read by: broth dilution ; organism: Aspergillus ochraceus ; value: 0.01 µg/mL
Cc1ccc(S(=O)(=O)CNc2oc3[nH]c(=O)[nH]c(=O)c3c2-c2ccc(F)cc2)cc1 ; endpoint: zone ; read by: agar diffusion / agar ; dose: 100 µg/mL ; organism: Aspergillus oryzae ; value: 28 mm
CCC(C)CC(C)CCCCCCCCC(=O)N[C@H]1C[C@@H](O)[C@H](NCCN)NC(=O)[C@@H]2[C@@H](O)CCN2C(=O)[C@H]([C@H](O)CCN)NC(=O)[C@H]([C@H](O)[C@@H](O)c2ccc(O)cc2)NC(=O)[C@@H]2C[C@@H](O)CN2C(=O)[C@H]([C@@H](C)O)NC1=O ; endpoint: MIC ; read by: broth dilution ; strain or isolate: CBS 594.65 ; organism: Aspergillus terreus ; value: 128 µg/mL
S=C(N/N=C/c1c[nH]c2ccccc12)NC1CCCCC1 ; endpoint: MIC ; read by: broth dilution ; strain or isolate: CMT 0334 ; organism: Aspergillus parasiticus ; value: 500 µg/mL
CCOc1ccc2c(C(=O)N3NC(=NC)SC=C3c3cc4ccccc4oc3=O)cc(=O)oc2c1 ; endpoint: MIC50 ; read by: broth dilution ; organism: Aspergillus ochraceus ; value: 0.1 µg/mL
CC(=O)N1CCN(c2ccc(OC[C@H]3CO[C@](Cn4ccnc4)(c4ccc(Cl)cc4Cl)O3)cc2)CC1 ; endpoint: MIC90 ; strain or isolate: Species complex ; organism: Aspergillus versicolor ; value: 1 µg/mL
CCCCCCCCOC(=O)[C@]1(O)C[C@@H](O)[C@@H](O)[C@H](OC(=O)/C=C/c2ccc(O)c(O)c2)C1 ; endpoint: MIC50 ; read by: absorbance ; strain or isolate: SLV 549 ; organism: Aspergillus nomius ; value: 1600 µM
CCC(C)n1ncn(-c2ccc(N3CCN(c4ccc(OC[C@H]5CO[C@](Cn6cncn6)(c6ccc(Cl)cc6Cl)O5)cc4)CC3)cc2)c1=O ; endpoint: MIC100 ; read by: broth dilution / visual reading ; strain or isolate: MRCM 26158 ; organism: Aspergillus terreus ; value: 0.25 µg/mL
Brc1ccc(-c2n[nH]c(COc3ncnc4ccccc34)n2)cc1 ; endpoint: MIC100 ; strain or isolate: MTCC 277 ; organism: Aspergillus flavus ; value: 25 µg/mL
CCC(C)n1ncn(-c2ccc(N3CCN(c4ccc(OC[C@H]5CO[C@](Cn6cncn6)(c6ccc(Cl)cc6Cl)O5)cc4)CC3)cc2)c1=O ; endpoint: MFC90 ; strain or isolate: 94 isolates ; organism: Aspergillus fumigatus ; value: 4 µg/mL
C[C@H]1[C@H](O)[C@@H](C)/C=C/C=C/C=C/C=C/C=C/C=C/C=C/[C@H](O[C@@H]2O[C@H](C)[C@@H](O)[C@H](N)[C@@H]2O)C[C@@H]2O[C@](O)(C[C@@H](O)C[C@@H](O)CC[C@H](O)[C@@H](O)C[C@@H](O)CC(=O)O[C@H]1C)C[C@H](O)[C@H]2C(=O)O ; endpoint: MFC ; strain or isolate: Isolate AF65 ; organism: Aspergillus fumigatus ; value: 4 µg/mL
CC(C)S(=O)(=O)N1CCN(c2cnn(-c3cc(F)cc(F)c3)c(=O)c2OC2CCC(F)C2)CC1 ; endpoint: MIC ; read by: broth dilution ; strain or isolate: ND125 ; organism: Aspergillus terreus ; value: 0.5 µg/mL
O=C(/C=C/c1ccc(OCCCCCOc2ccc(/C=C/C(=O)c3ccccc3)cc2)cc1)c1ccccc1 ; endpoint: MIC ; read by: broth dilution ; organism: Aspergillus janus ; value: 8 µg/mL
CCNC(=S)N/N=C/C=C/c1ccccc1 ; endpoint: MIC ; read by: broth dilution ; strain or isolate: CMT 0334 ; organism: Aspergillus parasiticus ; value: 500 µg/mL
CCN=C1NN(C(=O)c2cc(=O)oc3cc(OCC)ccc23)C(c2cc3ccccc3oc2=O)=CS1 ; endpoint: MIC50 ; read by: broth dilution ; organism: Aspergillus ochraceus ; value: 0.1 µg/mL
CC1=C2C3=C4[C@@](C)(C(=O)[C@]2(O)OC1=O)[C@@H]1C[C@@H]1[C@@]4(O)C[C@@H]1[C@]32OC(=O)C3=C2C[C@H]2[C@](O)(COC(=O)/C(C)=C/COC(=O)CCC(=O)OC3)[C@H]3C[C@H]3[C@]12C ; endpoint: MIC ; read by: broth dilution ; strain or isolate: ATCC 293 ; organism: Aspergillus spp. ; value: 128 µg/mL
Cc1ccc(S(=O)(=O)CNc2oc3[nH]c(=O)[nH]c(=O)c3c2-c2ccc(Cl)cc2)cc1 ; endpoint: zone ; read by: agar diffusion / agar ; dose: 100 µg/mL ; organism: Aspergillus oryzae ; value: 20 mm
Cc1ccc(C(C)C)cc1O ; endpoint: MLC ; strain or isolate: F07 ; organism: Aspergillus fumigatus ; value: 0.16 µg/mL
O=c1cc(CO)occ1O ; endpoint: MIC99 ; read by: agar ; strain or isolate: UAB673 ; organism: Aspergillus terreus ; value: >12800 µM
CC(C)NC(=S)N/N=C/c1c[nH]c2ccccc12 ; endpoint: MIC ; read by: broth dilution ; strain or isolate: CMT 0334 ; organism: Aspergillus parasiticus ; value: 500 µg/mL

2 of the rows above, restated:

SMILES,endpoint,read by,strain or isolate,mutations,conditions,dose,organism,value
O=c1cc(CO)occ1O,MIC99,agar,UAB673,-,-,-,Aspergillus terreus,>12800 µM
CCN=C1NN(C(=O)c2cc(=O)oc3cc(OCC)ccc23)C(c2cc3ccccc3oc2=O)=CS1,MIC50,broth dilution,-,-,-,-,Aspergillus ochraceus,0.1 µg/mL